Consider one substance from US20240295544A1 (priority 2020, published 2024).

In this data set the test system is CMs. The data set is classed as cell-based. The following applies: CMs exposed to SARS-CoV-2.

With “IFN-β: Interferon β, Sigma Aldrich (IF014), 2500 U/mL”, the “incidence of myofibrillar disruption” value is on record as “did not reduce the incidence of myofibrillar disruption”.
